Measurements from patent US20040235103.
Where a chain is given by its changes, count along the chain named. The exact form of at least one protein or probe is not confirmed. Where a protein sequence is shown, tags need not be part of it.

How the values were obtained:
Assay in all cases: enzyme reaction in vitro
Details in all cases: kobs supercoiled substrate loss, 10 mM Mg acetate, 37 C, purified recombinant protein, protein details: purified from pGRTYB35 construct
[1] = system: T1, Tn5 transposase EK54/LP372/PD242 E54K,P242D,L372P (Transposon Tn5)
T1 sequence (limits assumed): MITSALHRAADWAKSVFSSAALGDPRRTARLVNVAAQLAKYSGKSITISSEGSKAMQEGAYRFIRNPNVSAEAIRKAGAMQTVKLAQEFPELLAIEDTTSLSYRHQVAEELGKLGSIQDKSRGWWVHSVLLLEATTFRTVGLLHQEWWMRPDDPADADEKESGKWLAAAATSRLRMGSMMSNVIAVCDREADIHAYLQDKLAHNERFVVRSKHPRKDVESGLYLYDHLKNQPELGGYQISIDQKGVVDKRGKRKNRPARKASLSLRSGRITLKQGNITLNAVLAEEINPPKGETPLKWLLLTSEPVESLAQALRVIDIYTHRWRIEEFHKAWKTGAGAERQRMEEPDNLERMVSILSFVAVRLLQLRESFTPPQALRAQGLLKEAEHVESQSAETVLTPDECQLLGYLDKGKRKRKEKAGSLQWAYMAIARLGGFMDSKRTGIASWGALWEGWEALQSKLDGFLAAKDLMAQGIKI

[2] = system: T2, Tn5 transposase EK54/LP372/PV242 E54K,P242V,L372P (Transposon Tn5)
T2 sequence (limits assumed): T1 sequence (limits assumed) with D242V

[3] = system: T3, Tn5 transposase EK54/LP372/PY242 E54K,P242Y,L372P (Transposon Tn5)
T3 sequence (limits assumed): T1 sequence (limits assumed) with D242Y

[4] = system: T4, Tn5 transposase EK54/LP372 E54K,L372P (Transposon Tn5)
T4 sequence (limits assumed): T1 sequence (limits assumed) with D242P

[5] = system: T5, Tn5 transposase EK54/LP372/PA242 E54K,P242A,L372P (Transposon Tn5)
T5 sequence (limits assumed): T1 sequence (limits assumed) with D242A

[6] = system: T6, Tn5 transposase EK54/LP372/PI242 E54K,P242I,L372P (Transposon Tn5)
T6 sequence (limits assumed): T1 sequence (limits assumed) with D242I

[7] = system: T7, Tn5 transposase EK54/LP372/PF242 E54K,P242F,L372P (Transposon Tn5)
T7 sequence (limits assumed): T1 sequence (limits assumed) with D242F

[8] = system: T8, Tn5 transposase EK54/LP372/PL242 E54K,P242L,L372P (Transposon Tn5)
T8 sequence (limits assumed): T1 sequence (limits assumed) with D242L

[9] = system: T9, Tn5 transposase EK54/LP372/PG242 E54K,P242G,L372P (Transposon Tn5)
T9 sequence (limits assumed): T1 sequence (limits assumed) with D242G

[10] = SD 0.13, 100 nM Tnp, variant of wild-type OE (pKJ1)
[11] = SD 0.08, 100 nM Tnp, variant of wild-type OE (pKJ1)

| Sequence | activity on this sequence ([1]; SD 0.03, 250 nM Tnp) [s⁻¹] | activity on this sequence ([2]; SD 0.06, 250 nM Tnp) [s⁻¹] | activity on this sequence ([3]; SD 0.04, 250 nM Tnp) [s⁻¹] | activity on this sequence ([4]; SD 0.03, 250 nM Tnp) [s⁻¹] | activity on this sequence ([5]; SD 0.14, 250 nM Tnp) [s⁻¹] | activity on this sequence ([6]; SD 0.03, 250 nM Tnp) [s⁻¹] | activity on this sequence ([7]; SD 0.03, 250 nM Tnp) [s⁻¹] | activity on this sequence ([8]; SD 0.07, 250 nM Tnp) [s⁻¹] | activity on this sequence ([9]; SD 0.10, 250 nM Tnp) [s⁻¹] | activity on this sequence ([1]; SD 0.18, 100 nM Tnp, variant of wild-type OE (pKJ1)) [s⁻¹] | activity on this sequence [2, 10] [s⁻¹] | activity on this sequence [3, 10] [s⁻¹] | activity on this sequence [4, 11] [s⁻¹] | activity on this sequence ([5]; SD 0.09, 100 nM Tnp, variant of wild-type OE (pKJ1)) [s⁻¹] | activity on this sequence ([6]; SD 0.36, 100 nM Tnp, variant of wild-type OE (pKJ1)) [s⁻¹] | activity on this sequence ([7]; SD 0.12, 100 nM Tnp, variant of wild-type OE (pKJ1)) [s⁻¹] | activity on this sequence ([8]; SD 0.19, 100 nM Tnp, variant of wild-type OE (pKJ1)) [s⁻¹] | activity on this sequence [9, 11] [s⁻¹] |
| --- | --- | --- | --- | --- | --- | --- | --- | --- | --- | --- | --- | --- | --- | --- | --- | --- | --- | --- |
| CTGACTCTTATACACAAGT (double strand) [wild-type OE (pKJ1)] | 0.55 | 1.42 | 0.6 | 0.79 | 2.52 | 0.94 | 0.58 | 1.56 | 2.5 |  |  |  |  |  |  |  |  |  |
| CTGTCTCTTATACACATCT (double strand) [modified OE (pKJ4)] |  |  |  |  |  |  |  |  |  | 2.93 | 2.8 | 2.48 | 1.45 | 2.6 | 3.01 | 1.9 | 2.89 | 2.22 |
